Laboratory results as given in the supplement of paper PMC9931576.
Residue numbers refer to the chain shown, from its start. Human monoclonal antibodies against the spike receptor-binding domain (heavy:light variable regions). IC50 against pseudoviruses bearing the spike of naturally observed variants; lower = stronger; >10 µg/ml means not reached at the top dose. No active / inactive call. The stated detection limit is 0.0005 µg/ml; values near or below 0.001 µg/ml lie at the floor of the assay.

B1: BD55-6361 (protein)
chain 1: QVQLVDSGGGVVQPGRSLRLSCAASKFTFSSYAMQWVRQAPGKGLEWVAVISSDGSDKYYADSVKGRFTISRDNSKNTLYLQMNSLRPEDTAVYYCARPRRTVTYHDAFDFWGQGTMVTVSS
chain 2: EIVLTQSPGTLSLSPGERATLSCRASQIFSSSYLAWYQQKVGQAPRLLMYDAFSRATGIPDRFSGSWSGTDFTLTISRLEPEDFAVYYCQYYGSSPITFGQGTRLEIK
B2: BD55-6362 (protein)
chain 1: EVQLLESGGGLAPPGGSLRLACSASGFTFRTEAMSWLRQAPGKGLEWVSAITDSGVGTFYTDSVQGRFTISRDNSKNTLFLHMSGLRGEDTAVYYCAKEGGYCSGTSCYNWFDPWGPGTLVTVSS
chain 2: DIQMTQSPSSLSAYVGDRVTITCRASQRIGTHLNWYQQKPGKAPRLLIYAASSLQSGVPSRFSGSGSGTDFTLTISSLQPEDFATYHCQQSYETPQWTFGQGTKVEIK
B3: BD55-6346 (protein)
chain 1: QLQLQGSGPRLVKPSETLSLTCTVSGGSVSSSSYYWGWIRQPPGKGLEWIGSMYYSGTSYYHPSLTSRVTISIDTSKNQFSLQLSSVTAADTALYYCARGLYGYCTGANCYGDFYFDFWGQGTLVTVSS
chain 2: DIQMTQSPSTLSASVGDKVTIPCRASQSISSWLAWYQQKPGKAPKLLIYKASSLESGVPSRFSGSGSGTEFTLTISSLQPDDFATYYCQQYSTYPWTFGQGTKVEIE
B4: BD55-1226 (protein)
chain 1: QVQLVESGGGVVQPGRSLRLSCAASGFSLKTYGMHWVRQAPGKGLEWVAVIWDDGKNKLYAESVKGRITISSDNSQNTVYLQMTSLRAEDTAVYYCARDMGRLVSWFDYWGQGTLVTVSS
chain 2: DIQMTQSPSSLSASVGDRVTITCRASQSISRYLNWYQHKPGTAPKLLIYDASSLQSGVPSRFSGSGSGTDFTLTISSLQPEDFATYFCQQSYNTPPWTFGQGTKVEVK
B5: BD55-6372 (protein)
chain 1: EVRLVESGGGVVQPGGSLRLSCAASEFTSDDYAMHWVRQAPGKALEWVSLISGADDTAYYADSVRGRFTISRGNSKNSLYLQMTSLRTEDTALYFCARDSHTSGFYYFDSWGQGALVTVSS
chain 2: B4 chain 2 with S28T, R31I, H38Q, T42K, I48V, D50A, N93T, P96G, V105L, V107I
B6: BD55-6350 (protein)
chain 1: EVHLLESGGGLVQPGGSLRLSCGASGLTFRNYAMTWVRQAPGKGLEWVSSISGVGGRAYHADSVKGRFAISRDNSKNTLYLQMNSLTAEDTATYYCAKDLSFDFWTGYDKLSHYEYGMDVWGQGTTVTVSS
chain 2: EIVLTQSPGTLSLSPGERATLSCRASQTISSTYIAWYQHKPGQAPRLLIYGASSRATGIPDRFSGSGSGTDFTLTISRLEPEDFAVYYCQQYGSSPPYTFGQGTKLQIK
B7: BD55-1232 (protein)
chain 1: EVQLVQSGAEVKKPGESLKISCKGSGYRFTSYWIGWVRQMPGKGLEWMGTISPDDSDTRYSPSFEGQVTISVDKSISTAYLHWSSLKASDTAMYYCARTGIPQYDAILTGYRWDFDCWGQGSLVTVSS
chain 2: EIVLTQSPATLSLSPGERATLSCRASQSVSSYLAWYQQKLGQAPRLLIYDASNRATGIPARFSGSGSGTDFTLTISSLEPEDFAVYYCQQRSNWSPGTFGQGTKLEIK
B8: BD55-6342 (protein)
chain 1: DVQLLESGGGLVQPGGSLRLSCAASGFTFSDYAMSWVRQAPGRGLEWVSTISYSGVTTYFADSVEGRFTISRDNSKNTVSLQMNSLRAEDTALYYCARDSRGYYSMDVFDIWGQGTMVTVSS
chain 2: DVVMTQSPLSLPVTLGQPASISCRSSQSLVYSDGNTYLNWFQQRPGQSPRRLIYQVSNRDSGVPDRFSGSGSATDFTLTISRVEAEDVGVYYCMQGTHWPRTFGQGTKVELK
B9: BD55-1233 (protein)
chain 1: QVHLVQSGAEVKKPGASVKVSCKASGYTFTSYGISWVRQAPGQGLECMGWISAYNDKTNYTQKFQGRVTMTTDTSTSTAYMELRSLRSDDTAVYYCARILNYYDRRGNYYAEEYFQYWGQGSLVIVSS
chain 2: QSVLTQPPSVSGAPGQRVTISCTGSSSNIGAGFDVHWYQQFQGTAPKLLIYGNTNRPSGVPDRFSVSKSDTSASLAITGLQPEDEADYFCQSYDSNLSSPVFGGGTKLTVL
B10: BD55-6349 (protein)
chain 1: EVRLVESGGGLVQPGGSLRLSCAASGFTVSTYDMHWVRQVTGKGLEWVSGIGTAGDTYYLGSVRGRFTISREKAKNSLYLQMNSLRAGDTAVYYCVRAPSYYYYYYMDVWGKGTTVTVSS
chain 2: EVVLTQSPGTLSMSPGERASLSCRASQSVTTNYVAWYQQKPGQAPRLLIYHASSRATGVPDRFSGSGSDTDFTLTISRLEPEDFAVYYCQLYGSSPMYTFGQGTRLEIK
B11: BD55-6367 (protein)
chain 1: QVQLVESGGGVVQPGRSLRLSCAASGFTFSSHGMHWVRQTPGKGLEWVAVISSDGRGKFHADSVKGRFTISRDNSKNTLFLQLSSLRPEDTAVYYCARDSNTMIVEVLDYWGQGTLVTVSS
chain 2: DIQMTQSPSSLSASVGATVTITCRASQTISGYLNWYQQKPGKAPKLLIYAASSLQSGVPSRFSGSGSGTDFTLTISSLQPEDFATYYCQQSYTSPEYTFGQGTKLEIK
B12: BD55-6345 (protein)
chain 1: EVQLVESGGGLVKPGGSLRLSCAASGFTFSSFDMNWVRQAPGKGLEWVSSITTSSSYIYYADSMKGRFTISRDDAKNSLYLQMNSLRAEDTAVYYCARASSNYFGLNYFDYWGRGTLVTVSS
chain 2: EIMMTQSPATLSVSPGDRATLSCRASQSVSSNLAWYQQKPGQAPRLLIYGASTRATGIPARFSGSGSGTEFTLTVSSLQSEDFAVYHCQQYHIWPPMYTFGQGTKLEIK

biological target: SARS-CoV-2 Omicron BA.1 spike pseudovirus; test: pseudovirus neutralization IC50; higher = weaker neutralization
Experimental: (§1)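 Single-round VSV luciferase pseudovirus mixed with antibody dilutions for 1 h and put on Huh-7 cells for about a day; IC50 from the dose curve.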

Binder | pseudovirus neutralization IC50 [µg/mL]
B1 | > 10
B2 | > 10
B3 | 1.64
B4 | > 10
B5 | > 10
B6 | > 10
B7 | > 10
B8 | > 10
B9 | 2.04
B10 | 3.24
B11 | > 10
B12 | > 10

biological target: SARS-CoV-2 Omicron BA.2 spike pseudovirus; test: as above
Experimental: as §1

Binder | pseudovirus neutralization IC50 [µg/mL]
B1 | > 10
B2 | > 10
B3 | 2.3
B4 | > 10
B5 | > 10
B6 | > 10
B7 | > 10
B8 | > 10
B9 | > 10
B10 | 2.74
B11 | > 10
B12 | > 10

biological target: SARS-CoV-2 Omicron BA.2.75 spike pseudovirus; test: as above
Experimental: as §1

Binder | pseudovirus neutralization IC50 [µg/mL]
B1 | > 10
B2 | > 10
B3 | 3.3
B4 | > 10
B5 | > 10
B6 | > 10
B7 | > 10
B8 | > 10
B9 | > 10
B10 | 3.66
B11 | > 10
B12 | > 10

biological target: SARS-CoV-2 Omicron BA.5 spike pseudovirus; test: as above
Experimental: as §1

Binder | pseudovirus neutralization IC50 [µg/mL]
B1 | > 10
B2 | > 10
B3 | 1.51
B4 | > 10
B5 | > 10
B6 | > 10
B7 | > 10
B8 | > 10
B9 | > 10
B10 | 2.12
B11 | > 10
B12 | > 10

biological target: SARS-CoV-2 Omicron BQ.1.1 spike pseudovirus; test: as above
Experimental: as §1

Binder | pseudovirus neutralization IC50 [µg/mL]
B1 | > 10
B2 | > 10
B3 | 6.46
B4 | > 10
B5 | > 10
B6 | > 10
B7 | > 10
B8 | > 10
B9 | > 10
B10 | > 10
B11 | > 10
B12 | > 10

biological target: SARS-CoV-2 Omicron XBB spike pseudovirus; test: as above
Experimental: as §1

Binder | pseudovirus neutralization IC50 [µg/mL]
B1 | > 10
B2 | > 10
B3 | 3.66
B4 | > 10
B5 | > 10
B6 | > 10
B7 | > 10
B8 | > 10
B9 | > 10
B10 | > 10
B11 | > 10
B12 | > 10

biological target: SARS-CoV-2 early D614G spike pseudovirus; test: as above
Experimental: as §1

Binder | pseudovirus neutralization IC50 [µg/mL]
B1 | > 10
B2 | > 10
B3 | 3.13
B4 | 4.4
B5 | > 10
B6 | 4.7
B7 | 0.0749
B8 | > 10
B9 | 0.191
B10 | 2.51
B11 | 4.36
B12 | > 10
